Among the data in PMC8480776, “Selenium Derivatives as Promising Therapy for Chagas Disease: In Vitro and In Vivo Studies” (ACS Infectious Diseases, 2021) are IC50 values, retold here.

The structures appear in SMILES notation.

The subject of assay [1] is T. cruzi epimastigotes, SN3 strain. Nature of the assay: Screening against extracellular epimastigotes, SN3 strain. Format: cell-based, Trypanosoma cruzi. To be noted: read-out: Activity IC50, epimastigote form, SN3 strain; 48 h + 24 h resazurin. In general terms: Resazurin is reduced to fluorescent resorufin, in cell work by metabolically active cells.
Assay [2] has as its system Vero cells. Description: Cytotoxicity test on Vero cells. Format: cell-based. To be noted: read-out: Toxicity IC50 Vero cell; 48 h + 24 h resazurin.
Assay [3] relates to T. cruzi epimastigotes, Arequipa strain. Description: Screening against extracellular epimastigotes, Arequipa strain. Format: cell-based, Trypanosoma cruzi. To be noted: read-out: Activity IC50, epimastigote form, Arequipa strain; 48 h + 24 h resazurin.
Assay [4] has as its system T. cruzi epimastigotes, Tulahuen strain. Description: Screening against extracellular epimastigotes, Tulahuen strain. Format: cell-based, Trypanosoma cruzi. To be noted: read-out: Activity IC50, epimastigote form, Tulahuen strain; 48 h + 24 h resazurin.

A word on the IC50: it is the concentration needed to halve the response being measured. Regarding `CCOP(=S)(Nc1ccc([Se]C#N)cc1)OCC`, the IC50 in assay [1] is more than 50 µM; in assay [2] it was less than 50 µM; in assay [3], 38.9 µM; in assay [4], more than 50 µM.

Take `COP(=S)(Nc1ccc([Se]C#N)cc1)OC`: the IC50 in assay [1] is 30.5 µM; in assay [2], less than 50 µM; in assay [3] it was 38.2 µM; in assay [4], 41.5 µM.
